Our source for the T1/2 values is ChEMBL document CHEMBL1124519 (J Med Chem, 1989).

This series in a line: Half-life period obtained from linear regression of metabolite concentration in aqueous buffer of pH 7.4 at 37 degrees Celsius in 100 mM HEPES buffer.

`NP(=O)(O)N(CCCl)CCCl`: the T1/2 amounted to 18 min.
